Screening data, single-dose tests

Data taken from ChEMBL document CHEMBL3988442, “University of Dundee, Small-Polar-MMV Screening Library” (2021).

Results are given as percent effect.
The controls that fix the scale are not given in the record; negative values are as filed.
Many other results are left out here, so strong results are more common than in the screen.
A dash means the value is not listed here; it may have been measured.

Mtb cholesterol medium: 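Growth of Mycobacterium tuberculosis over 4 days (cholesterol / DPPC medium with tyloxapol); the read-out is not stated. Tested at 500 µM. Higher reads as more growth inhibition (inferred: compounds with an IC50 in retests scored well above the rest). About 18,000 compounds were tested under these conditions; 5% (about 900) showed 50% or more at least once.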
Mtb glucose medium: 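Whole-cell growth test on Mycobacterium tuberculosis, read after 3 days in glucose-containing 7H9 medium; the read-out is not stated. Concentration: 500 µM. The record gives no direction; compounds that gave an IC50 in retests scored well above the rest, so higher reads as more growth inhibition. About 18,000 compounds were tested under these conditions; 7.9% (about 1,400) showed 50% or more at least once.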

{"structure": "NCc1cc(Br)c2c(c1)OCO2", "Mtb glucose medium": -8.937}
{"structure": "CC1(C)CCCN1C(=O)NCCCNC(=O)C1CCC1", "Mtb cholesterol medium": -2.059}
{"structure": "CSCCC(O)C(=O)NCC1(Cn2cccn2)CC1", "stereo": "configuration not stated", "Mtb cholesterol medium": 0.4147}
{"structure": "CCn1ccnc1C1CCCCN1", "stereo": "configuration not stated", "Mtb cholesterol medium": 8.924}
{"structure": "CC(CN1CCCC1=O)NCc1ccc(C#N)cc1", "stereo": "configuration not stated", "Mtb glucose medium": 7.637}
{"structure": "Cc1ccc(CC(=O)N2CCN(CCO)CC2)cc1C", "Mtb cholesterol medium": 1.688}
{"structure": "CCOC(=O)CC1C(=O)NCCN1CCC#N", "stereo": "configuration not stated", "Mtb glucose medium": -1.454}
{"structure": "CCc1nc(Cn2ccc(C)c(C#N)c2=O)no1", "Mtb glucose medium": -1.451}
{"structure": "CNC(=O)C1CCCN1Cc1ncc(C(C)(C)C)o1", "stereo": "configuration not stated", "Mtb cholesterol medium": 21.4, "Mtb glucose medium": 41.36}
{"structure": "N#Cc1cc(CN2CCCC(OCCO)C2)ccc1F", "stereo": "configuration not stated", "Mtb glucose medium": 5.215}
{"structure": "Cn1ncc(C(=O)OC2CCOC2)c1-n1cccc1", "stereo": "configuration not stated", "Mtb glucose medium": -0.9537}
{"structure": "CC(=O)Nc1nc(C(=O)N(C)C(C)CC(C)C)cs1", "stereo": "configuration not stated", "Mtb glucose medium": -2.457}
{"structure": "CNc1nc(C(=O)N2CC(C)(C)[C@@](C)(O)C2)cs1", "Mtb cholesterol medium": 6.077}
{"structure": "O=C1c2ccccc2OCC1CN1CCOCC1", "stereo": "configuration not stated", "Mtb cholesterol medium": 113.3, "Mtb glucose medium": 104.2}
{"structure": "O=C(Cn1nc2ccccn2c1=O)N1CCCCCC1", "Mtb cholesterol medium": 0.3997}
{"structure": "NCCCn1ccnn1", "Mtb cholesterol medium": -2.228}
{"structure": "COc1ccc(C(=O)N2CCCCC2C(N)=O)cc1F", "stereo": "configuration not stated", "Mtb glucose medium": -9.267}
{"structure": "O=C1CN(C(=O)Nc2cc(Cl)ccc2F)CCN1", "Mtb cholesterol medium": 17.43, "Mtb glucose medium": 35.75}
{"structure": "N#Cc1cccc(NC(=O)CCN2CCOC2=O)c1", "Mtb glucose medium": 5.418}
{"structure": "Cc1nc(C)c(C(=O)NCCS(=O)(=O)CC(C)C)s1", "Mtb cholesterol medium": -9.992}
{"structure": "CCc1nc2ccccc2n1CCN", "Mtb glucose medium": 15.53}
{"structure": "CCn1nnc(NCc2ccccc2)n1", "Mtb cholesterol medium": 77.76, "Mtb glucose medium": 74.66}
{"structure": "Cc1ccnc(SCC(N)=O)c1C#N", "Mtb glucose medium": -3.032}
{"structure": "Cc1cccc(C(C)(C)N)c1", "Mtb glucose medium": -5.164}
{"structure": "O=C(NCCc1noc(C(F)(F)F)n1)c1ccnnc1", "Mtb cholesterol medium": 14.72}
{"structure": "N#Cc1cccc(CS(=O)(=O)N[C@H]2CCCNC2)c1", "Mtb glucose medium": 9.475}
{"structure": "COc1cc2c(cc1CN(C)[C@H]1COC[C@@H]1O)OCO2", "Mtb glucose medium": 13.46}
{"structure": "C=C(C)CSCC(=O)NC(C)C(=O)N1CCCCC1", "stereo": "configuration not stated", "Mtb cholesterol medium": 19.56}
{"structure": "COc1cccc(NC(=O)NCCN(C)C(C)C)c1", "Mtb glucose medium": 9.391}
{"structure": "CCCC(N)C(=O)Nc1nccs1", "stereo": "configuration not stated", "Mtb glucose medium": -19.53}
{"structure": "CN1Cc2cc(-c3csc(N)n3)ccc2NC1=O", "Mtb cholesterol medium": 28.11, "Mtb glucose medium": 59.24}
{"structure": "CCOC(C(=O)NCC(C)(C)C(N)=O)c1ccccc1", "stereo": "configuration not stated", "Mtb glucose medium": 3.901}
{"structure": "CCN1CCN(C(=O)CSc2ccncc2)C(C)C1=O", "stereo": "configuration not stated", "Mtb glucose medium": 16.07}
{"structure": "Cn1ncnc1NC(=O)CCc1ccc(F)cc1", "Mtb glucose medium": -1.47}
{"structure": "O=C(NC1CCC(O)CC1)N1CCN(CC2CC2)CC1", "stereo": "configuration not stated", "Mtb cholesterol medium": 3.287}
{"structure": "Cn1cc(CNS(=O)(=O)Cc2ccccc2)cn1", "Mtb glucose medium": 12.58}
{"structure": "CCC1COCCN1C(=O)CN1Cc2ccccc2C1", "stereo": "configuration not stated", "Mtb glucose medium": 9.366}
{"structure": "CCN(Cc1ccc(CO)o1)CC1CCCO1", "stereo": "configuration not stated", "Mtb cholesterol medium": -2.563}
{"structure": "CN(C)Cc1nnc(-c2ccccc2)o1", "Mtb glucose medium": 42.9}
{"structure": "CNC(C)CS(C)(=O)=O", "stereo": "configuration not stated", "Mtb glucose medium": 3.74}
{"structure": "CC(Sc1nnc(-c2ccccc2F)n1C)C(N)=O", "stereo": "configuration not stated", "Mtb cholesterol medium": -1.039}
{"structure": "Cc1ccc(CS(=O)(=O)N2CCC(C(N)=O)CC2)cc1", "Mtb glucose medium": -10.83}

Once more, the final 4:

| structure | Mtb cholesterol medium | Mtb glucose medium |
|---|---|---|
| `CN(C)Cc1nnc(-c2ccccc2)o1` | - | 42.9 |
| `CNC(C)CS(C)(=O)=O` (configuration not stated) | - | 3.74 |
| `CC(Sc1nnc(-c2ccccc2F)n1C)C(N)=O` (configuration not stated) | -1.039 | - |
| `Cc1ccc(CS(=O)(=O)N2CCC(C(N)=O)CC2)cc1` | - | -10.83 |